Assay results taken from patent US20190359662A1.
Changes are numbered by the printed parent chain. In names and notes the source's numbering stands.

B1: [E10K]Pnc1a (peptide)
peptide: DCRYMFGDCKKDEDCCKHLGCKRKMKYCAWDFTFT
modifications: not checked
B2: [D8G]Pnc1a (peptide)
peptide: B1 peptide with D8G, K10E
modifications: not checked
B3: [Y4A]Pnc1a (peptide)
peptide: B1 peptide with Y4A, K10E
modifications: not checked
B4: [D8K]Pnc1a (peptide)
peptide: B1 peptide with D8K, K10E
modifications: not checked
B5: [K24R]Pnc1a (peptide)
peptide: B1 peptide with K10E, K24R
modifications: not checked
B6: [D1K]Pnc1a (peptide)
peptide: B1 peptide with D1K, K10E
modifications: not checked
B7: [K24D]Pnc1a (peptide)
peptide: B1 peptide with K10E, K24D
modifications: not checked

Molecular target: hNav1.5 (human), Q14524
Assay: cell-based or functional assay

**Q.** Which IC50, membrane potential assay does the source give for B1 here?
**A.** Its IC50, membrane potential assay is 13000 nM.

**Q.** And the Selectivity for Nav1.7, membrane potential assay?
**A.** Its Selectivity for Nav1.7, membrane potential assay is 326 fold.

**Q.** With B2 as the binder, how does the IC50, membrane potential assay read?
**A.** The IC50, membrane potential assay was > 30000 nM.

**Q.** What about the Selectivity for Nav1.7, membrane potential assay of the same binder?
**A.** Its Selectivity for Nav1.7, membrane potential assay is > 616 fold.

**Q.** B3 was tested. Which IC50, membrane potential assay did it give?
**A.** The IC50, membrane potential assay was 18000 nM.

**Q.** What about the Selectivity for Nav1.7, membrane potential assay of the same binder?
**A.** Its Selectivity for Nav1.7, membrane potential assay is 20 fold.

**Q.** B4 was tested. Which IC50, membrane potential assay did it give?
**A.** Its IC50, membrane potential assay is > 30000 nM.

**Q.** And the Selectivity for Nav1.7, membrane potential assay?
**A.** Its Selectivity for Nav1.7, membrane potential assay is > 2000 fold.

**Q.** Which results are given for B5?
**A.** IC50, membrane potential assay: > 30000 nM; Selectivity for Nav1.7, membrane potential assay: > 900 fold

**Q.** How did the IC50, membrane potential assay turn out when B6 was run?
**A.** The IC50, membrane potential assay was > 30000 nM.

**Q.** What about the Selectivity for Nav1.7, membrane potential assay of the same binder?
**A.** Its Selectivity for Nav1.7, membrane potential assay is > 900 fold.

Molecular target: hNav1.2 (human), Q99250
Assay: cell-based or functional assay

**Q.** B1 was tested. Which IC50, membrane potential assay did it give?
**A.** Its IC50, membrane potential assay is 172 nM.

**Q.** And the Selectivity for Nav1.7, membrane potential assay?
**A.** The Selectivity for Nav1.7, membrane potential assay was 4 fold.

**Q.** Which results are given for B2?
**A.** IC50, membrane potential assay: 301 nM; Selectivity for Nav1.7, membrane potential assay: 6 fold

**Q.** For B3, which IC50, membrane potential assay is on record?
**A.** Its IC50, membrane potential assay is 8000 nM.

**Q.** And the Selectivity for Nav1.7, membrane potential assay?
**A.** Its Selectivity for Nav1.7, membrane potential assay is 8 fold.

**Q.** How did the IC50, membrane potential assay turn out when B7 was run?
**A.** The IC50, membrane potential assay was 38000 nM.

**Q.** Which results are given for B4?
**A.** IC50, membrane potential assay: 40 nM; Selectivity for Nav1.7, membrane potential assay: 3 fold

**Q.** For B5, which IC50, membrane potential assay is on record?
**A.** The IC50, membrane potential assay was 414 nM.

**Q.** And the Selectivity for Nav1.7, membrane potential assay?
**A.** The Selectivity for Nav1.7, membrane potential assay was 13 fold.

**Q.** B6 was tested. Which IC50, membrane potential assay did it give?
**A.** Its IC50, membrane potential assay is 261 nM.

**Q.** And the Selectivity for Nav1.7, membrane potential assay?
**A.** The Selectivity for Nav1.7, membrane potential assay was 8 fold.

Molecular target: hNav1.6 (human), Q9UQD0
Assay: cell-based or functional assay

**Q.** B1 was tested. Which IC50, membrane potential assay did it give?
**A.** Its IC50, membrane potential assay is 820 nM.

**Q.** And the Selectivity for Nav1.7, membrane potential assay?
**A.** The Selectivity for Nav1.7, membrane potential assay was 20 fold.

**Q.** With B2 as the binder, how does the IC50, membrane potential assay read?
**A.** Its IC50, membrane potential assay is 2000 nM.

**Q.** And the Selectivity for Nav1.7, membrane potential assay?
**A.** The Selectivity for Nav1.7, membrane potential assay was 46 fold.

**Q.** With B3 as the binder, how does the IC50, membrane potential assay read?
**A.** Its IC50, membrane potential assay is > 30000 nM.

**Q.** And the Selectivity for Nav1.7, membrane potential assay?
**A.** Its Selectivity for Nav1.7, membrane potential assay is > 30 fold.

**Q.** How did the IC50, membrane potential assay turn out when B4 was run?
**A.** Its IC50, membrane potential assay is > 30000 nM.

**Q.** What about the Selectivity for Nav1.7, membrane potential assay of the same binder?
**A.** Its Selectivity for Nav1.7, membrane potential assay is > 2000 fold.

**Q.** What does the source list for B5?
**A.** IC50, membrane potential assay: > 30000 nM; Selectivity for Nav1.7, membrane potential assay: > 900 fold

**Q.** For B6, which IC50, membrane potential assay is on record?
**A.** Its IC50, membrane potential assay is > 30000 nM.

**Q.** What about the Selectivity for Nav1.7, membrane potential assay of the same binder?
**A.** Its Selectivity for Nav1.7, membrane potential assay is > 900 fold.

Molecular target: hNav1.1 (human), P35498
Assay: cell-based or functional assay

**Q.** Which IC50, membrane potential assay does the source give for B1 here?
**A.** Its IC50, membrane potential assay is 384 nM.

**Q.** And the Selectivity for Nav1.7, membrane potential assay?
**A.** Its Selectivity for Nav1.7, membrane potential assay is 9 fold.

**Q.** How did the IC50, membrane potential assay turn out when B2 was run?
**A.** The IC50, membrane potential assay was 2000 nM.

**Q.** What about the Selectivity for Nav1.7, membrane potential assay of the same binder?
**A.** Its Selectivity for Nav1.7, membrane potential assay is 35 fold.

**Q.** For B3, which IC50, membrane potential assay is on record?
**A.** Its IC50, membrane potential assay is 17000 nM.

**Q.** What about the Selectivity for Nav1.7, membrane potential assay of the same binder?
**A.** The Selectivity for Nav1.7, membrane potential assay was 19 fold.

**Q.** For B7, which IC50, membrane potential assay is on record?
**A.** Its IC50, membrane potential assay is 32000 nM.

**Q.** What about the Selectivity for Nav1.7, membrane potential assay of the same binder?
**A.** The Selectivity for Nav1.7, membrane potential assay was 63 fold.

**Q.** B4 was tested. Which IC50, membrane potential assay did it give?
**A.** The IC50, membrane potential assay was 241 nM.

**Q.** What about the Selectivity for Nav1.7, membrane potential assay of the same binder?
**A.** The Selectivity for Nav1.7, membrane potential assay was 19 fold.

**Q.** Which IC50, membrane potential assay does the source give for B5 here?
**A.** The IC50, membrane potential assay was 856 nM.

**Q.** What about the Selectivity for Nav1.7, membrane potential assay of the same binder?
**A.** Its Selectivity for Nav1.7, membrane potential assay is 27 fold.

**Q.** With B6 as the binder, how does the IC50, membrane potential assay read?
**A.** The IC50, membrane potential assay was 754 nM.

**Q.** What about the Selectivity for Nav1.7, membrane potential assay of the same binder?
**A.** The Selectivity for Nav1.7, membrane potential assay was 24 fold.

Molecular target: hNav1.7 (human), Q15858
Assay: cell-based or functional assay

**Q.** What does the source list for B1?
**A.** IC50, membrane potential assay: 41 nM; Selectivity for Nav1.7, membrane potential assay: 1 fold

**Q.** With B2 as the binder, how does the IC50, membrane potential assay read?
**A.** Its IC50, membrane potential assay is 49 nM.

**Q.** What about the Selectivity for Nav1.7, membrane potential assay of the same binder?
**A.** The Selectivity for Nav1.7, membrane potential assay was 1 fold.

**Q.** Which IC50, membrane potential assay does the source give for B3 here?
**A.** Its IC50, membrane potential assay is 934 nM.

**Q.** And the Selectivity for Nav1.7, membrane potential assay?
**A.** The Selectivity for Nav1.7, membrane potential assay was 1 fold.

**Q.** Which results are given for B7?
**A.** IC50, membrane potential assay (* indicates partial inhibition): 510 nM; Selectivity for Nav1.7, membrane potential assay: 1 fold

**Q.** Which results are given for B4?
**A.** IC50, membrane potential assay: 13 nM; Selectivity for Nav1.7, membrane potential assay: 1 fold

**Q.** What does the source list for B5?
**A.** IC50, membrane potential assay: 31 nM; Selectivity for Nav1.7, membrane potential assay: 1 fold

**Q.** How did the IC50, membrane potential assay turn out when B6 was run?
**A.** Its IC50, membrane potential assay is 31 nM.

**Q.** What about the Selectivity for Nav1.7, membrane potential assay of the same binder?
**A.** Its Selectivity for Nav1.7, membrane potential assay is 1 fold.

Molecular target: hNav1.4 (human), P35499
Assay: cell-based or functional assay

**Q.** B1 was tested. Which IC50, membrane potential assay did it give?
**A.** The IC50, membrane potential assay was 2000 nM.

**Q.** And the Selectivity for Nav1.7, membrane potential assay?
**A.** The Selectivity for Nav1.7, membrane potential assay was 49 fold.

**Q.** Which IC50, membrane potential assay does the source give for B2 here?
**A.** The IC50, membrane potential assay was 2000 nM.

**Q.** What about the Selectivity for Nav1.7, membrane potential assay of the same binder?
**A.** The Selectivity for Nav1.7, membrane potential assay was 48 fold.

**Q.** B3 was tested. Which IC50, membrane potential assay did it give?
**A.** The IC50, membrane potential assay was 12000 nM.

**Q.** What about the Selectivity for Nav1.7, membrane potential assay of the same binder?
**A.** The Selectivity for Nav1.7, membrane potential assay was 12 fold.

**Q.** Which results are given for B7?
**A.** IC50, membrane potential assay: 12000 nM; Selectivity for Nav1.7, membrane potential assay: 24 fold

**Q.** What does the source list for B4?
**A.** IC50, membrane potential assay: 663 nM; Selectivity for Nav1.7, membrane potential assay: 52 fold

**Q.** Which IC50, membrane potential assay does the source give for B5 here?
**A.** The IC50, membrane potential assay was 3000 nM.

**Q.** What about the Selectivity for Nav1.7, membrane potential assay of the same binder?
**A.** The Selectivity for Nav1.7, membrane potential assay was 102 fold.

**Q.** Which results are given for B6?
**A.** IC50, membrane potential assay: 3000 nM; Selectivity for Nav1.7, membrane potential assay: 86 fold

Molecular target: hNav1.3 (human), Q9NY46
Assay: cell-based or functional assay

**Q.** Which results are given for B1?
**A.** IC50, membrane potential assay: 5000 nM; Selectivity for Nav1.7, membrane potential assay: 128 fold

**Q.** Which results are given for B2?
**A.** IC50, membrane potential assay: 658 nM; Selectivity for Nav1.7, membrane potential assay: 13 fold

**Q.** What does the source list for B3?
**A.** IC50, membrane potential assay: 20000 nM; Selectivity for Nav1.7, membrane potential assay: 22 fold

**Q.** B7 was tested. Which IC50, membrane potential assay did it give?
**A.** The IC50, membrane potential assay was 20000 nM.

**Q.** What about the Selectivity for Nav1.7, membrane potential assay of the same binder?
**A.** Its Selectivity for Nav1.7, membrane potential assay is 39 fold.

**Q.** With B4 as the binder, how does the IC50, membrane potential assay read?
**A.** The IC50, membrane potential assay was 2000 nM.

**Q.** And the Selectivity for Nav1.7, membrane potential assay?
**A.** Its Selectivity for Nav1.7, membrane potential assay is 159 fold.

**Q.** Which IC50, membrane potential assay does the source give for B5 here?
**A.** Its IC50, membrane potential assay is 8000 nM.

**Q.** And the Selectivity for Nav1.7, membrane potential assay?
**A.** The Selectivity for Nav1.7, membrane potential assay was 260 fold.

**Q.** With B6 as the binder, how does the IC50, membrane potential assay read?
**A.** Its IC50, membrane potential assay is 4000 nM.

**Q.** What about the Selectivity for Nav1.7, membrane potential assay of the same binder?
**A.** Its Selectivity for Nav1.7, membrane potential assay is 134 fold.

Molecular target: hNav1.8 (human), Q9Y5Y9
Assay: cell-based or functional assay

**Q.** Which IC50, membrane potential assay does the source give for B1 here?
**A.** The IC50, membrane potential assay was > 30000 nM.

**Q.** And the Selectivity for Nav1.7, membrane potential assay?
**A.** Its Selectivity for Nav1.7, membrane potential assay is > 700 fold.

**Q.** How did the IC50, membrane potential assay turn out when B2 was run?
**A.** Its IC50, membrane potential assay is > 30000 nM.

**Q.** And the Selectivity for Nav1.7, membrane potential assay?
**A.** Its Selectivity for Nav1.7, membrane potential assay is > 616 fold.

**Q.** How did the IC50, membrane potential assay turn out when B3 was run?
**A.** The IC50, membrane potential assay was > 30000 nM.

**Q.** And the Selectivity for Nav1.7, membrane potential assay?
**A.** Its Selectivity for Nav1.7, membrane potential assay is > 30 fold.

**Q.** Which IC50, membrane potential assay does the source give for B4 here?
**A.** The IC50, membrane potential assay was > 30000 nM.

**Q.** What about the Selectivity for Nav1.7, membrane potential assay of the same binder?
**A.** The Selectivity for Nav1.7, membrane potential assay was > 2000 fold.

**Q.** For B5, which IC50, membrane potential assay is on record?
**A.** Its IC50, membrane potential assay is > 30000 nM.

**Q.** What about the Selectivity for Nav1.7, membrane potential assay of the same binder?
**A.** Its Selectivity for Nav1.7, membrane potential assay is > 900 fold.

**Q.** B6 was tested. Which IC50, membrane potential assay did it give?
**A.** Its IC50, membrane potential assay is > 30000 nM.

**Q.** And the Selectivity for Nav1.7, membrane potential assay?
**A.** The Selectivity for Nav1.7, membrane potential assay was > 900 fold.
